Experimental data as given in patent publication US7786054B2, “Biocide for well stimulation and treatment fluids” (Kemira Chemicals, Inc., priority 2006, dated 2010).
“Also recorded” adds a separate entry of the source.

Key:
[1] = Effect of heat (180° F.) on viscosity of biocide/polymer fluids; conditions: 500 ppm biocide, FIG. 4
[2] = Friction loop compatibility of biocide with anionic friction reducer; conditions: total biocide loading 1000 ppm; FIG. 6

SMILES: O=CCCCC=O [Glut, glutaraldehyde]
- polymer viscosity after four hours at temperature ([1]; 180° F. for 4 hours): maintained nearly all its viscosity
- polymer viscosity at the eight-hour mark ([1]; 180° F. for 8 hours): only slightly reduced viscosity
- % FR relative to control, 150 to 420 second time interval [2]: remained even with that of the blank sample; also recorded: no effect on the performance of the polymer
